Anti-infective test results gathered from many reports (values: NIAID ChemDB through PubChem).

Shared fields: toxicity to cultured cells; cells: MRC-5; read-out: CC50

CCn: concentration that lowers growth or viability of the cells by n%. An empty or dashed field is not shown. Two numbers with a dash give a range or band. Conditions beyond the fields shown may differ between rows.

| smiles | method | value |
|---|---|---|
| CC(O)C\C=C/C=C\C=C\CCCCCCc1cccc(O)c1O | WST | 49.58 µM |
| N=C(N)c1cn([C@@H]2O[C@H](CO)[C@@H](O)[C@@H]2O)c2ncnc(N)c12 | - | >100 µM |
| CCCCCCCCCCCCSCC(COP(=O)([O-])OCC[N+](C)(C)C)OCCCCCCCCO | neutral red | >100 µM |
| CC(Oc1ccc2ncccc2c1)C(=O)N/N=C/c1ccc(Cl)c(Cl)c1 | absorbance | >512 µM |
| CCCCCCCCSC[C@H](O)COP(=O)(O)C(=O)O | - | 100–320 µM |
| N#CCc1csc2ccccc12 | visual reading | >100 µg/mL |
| CO/N=C/c1ccc(OCCC2CCN(c3nc4ccccc4o3)CC2)cc1 | neutral red | >0.1 µg/mL |
| CC(Oc1ccc2ncccc2c1)C(=O)N/N=C/c1ccc(CO)cc1 | absorbance | >512 µM |
| Cc1cc(O)c2c(c1)/C(=C1\c3cc(C)cc(O)c3C(=O)c3c(O)cc(O)cc31)c1cc(O)cc(O)c1C2=O | - | 1.6 µM |
| CCO/N=C/c1ccc(OCCC2CCN(c3ccc(Cl)nn3)CC2)cc1 | visual reading | >1 µg/mL |
| O=c1[nH]c(=S)n([C@@H]2O[C@H](CO)[C@@H](O)[C@@H]2O)cc1Br | - | >590 µM |
| O=C1c2ccccc2C(=O)c2c(O)ccc(O)c21 | - | >41.6 µM |
| C/C=C\C=C\C/C=C\CCCCCCCc1cccc(O)c1O | WST | 7.58 µM |
| CCO/N=C/c1ccc(OCCC2CCN(c3ccc(C)nn3)CC2)cc1 | visual reading | 10 µg/mL |
| COc1cc(C[C@H]2C(=O)OC[C@@H]2Cc2ccc3c(c2)OCO3)cc(OC)c1OC | MTT | 11.9 µg/mL |
| COc1cc(O)c2c(c1)C(=O)c1cc(C)cc(O)c1C2=O | - | >35.2 µM |
| CC(N)C12CC3CC(CC(C3)C1)C2 | - | 10–4000 µM |
| O=CN(O)CCCP(=O)(O)O | fluorescence | >62 µM |
| CO/N=C/c1ccc(OCCC2CCN(c3ccc(Cl)nn3)CC2)c(C)c1 | visual reading | >1 µg/mL |
| CN(O)C(=O)CC(c1ccccc1)P(=O)(O)O | fluorescence | >64 µM |
| O=c1[nH]c(=S)n([C@H]2C[C@H](O)[C@@H](CO)O2)cc1F | - | >383 µM |
| C=C(C)[C@]12C[C@@H](C)[C@@]34OC(CCCCCCCCC)(O[C@@H]1[C@H]3[C@@H]1O[C@]1(CO)[C@@H](O)[C@]1(O)C(=O)C(C)=C[C@H]14)O2 | MTS | 5.1 µM |
| CCCCCCCCCCCCCCCCOC[C@@H](O)COP(=O)(O)C(=O)O | - | 479 µM |
| CC(=O)Oc1ccc(/C=C/C(=O)O[C@@H]2[C@@H](OC(C)=O)[C@H](C)O[C@@H](Oc3c(-c4ccc(OC(C)=O)cc4)oc4cc(OC(C)=O)cc(OC(C)=O)c4c3=O)[C@@H]2OC(=O)/C=C/c2ccc(OC(C)=O)cc2)cc1 | - | >8.2 µM |
| O=c1[nH]c(=S)n([C@@H]2O[C@H](CO)[C@@H](O)[C@@H]2O)cc1I | - | >518 µM |
| O=C1c2ccc(O)c(O)c2C(=O)c2c(O)ccc(O)c21 | - | 12.5 µM |
| O=c1[nH]c(=O)n([C@H]2C[C@H](O)[C@@H](CO)O2)cc1F | - | >385 µM |
| O=C(O)P(=O)(O)O | - | >1000 µM |
| O=C1c2cccc(O)c2C(=O)c2cccc(O)c21 | - | >41.6 µM |
| Cc1cc2c(cc1O)C1=CC(=O)C(C)(C)C1=CC2=O | MTS | 1.3 µM |
| CCCCCCCCCCCCCCCCCCCCCCSC[C@H](O)COP(=O)(O)C(=O)O | - | 320–1000 µM |
| CC(Oc1ccc2ncccc2c1)C(=O)N/N=C/c1ccc(Br)cc1 | absorbance | >512 µM |
| CCO/N=C/c1cc(C)c(OCCC2CCN(c3ccc(C)nn3)CC2)cc1C | neutral red | >0.1 µg/mL |
| COc1cc(C2c3c(cc4c(c3OC)OCO4)C[C@H]3COC(=O)[C@H]23)cc(OC)c1OC | MTT | >10 µg/mL |
| C[C@]1(CO)O[C@@H](n2ccc(N)nc2=O)C[C@@H]1O | MTT | 260 µM |
| CCCCCCCCCCCCSCC(COP(=O)([O-])OCC[N+](C)(C)C)OCCCCCCCCC(=O)OCC(=O)OC[C@H]1O[C@@H](n2cc(C)c(=O)[nH]c2=O)C[C@@H]1N=[N+]=[N-] | neutral red | >100 µM |
| N#Cc1cc2ccncc2c2sc3ccccc3c12 | visual reading | 196 µg/mL |
| CC(Oc1ccc2ncccc2c1)C(=O)N/N=C/c1ccccc1Cl | absorbance | >512 µM |
| CCCCCCCCCCCCCCCCOCCCOP(=O)(O)C(=O)O | - | 320 µM |
| O=C1c2ccccc2C(=O)c2c1ccc(O)c2O | - | >41.6 µM |
| CCCCCCCCCCCCCCCCCCOCCCOP(=O)(O)C(=O)O | - | 660 µM |
| CC(Oc1ccc2ncccc2c1)C(=O)N/N=C/c1ccccc1 | absorbance | >512 µM |
| N=C(N)c1cn([C@H]2C[C@H](O)[C@@H](CO)O2)c2ncnc(N)c12 | - | 16 µM |
| CC(Oc1ccc2ncccc2c1)C(=O)N/N=C/c1ccc([N+](=O)[O-])cc1 | absorbance | >512 µM |
| NC1=Nc2c(ncn2CCC(/C=C/P(=O)(O)O)CO)C(=O)C1 | - | >250 µM |
| N/C(=N/O)c1cn([C@@H]2O[C@H](CO)[C@@H](O)[C@@H]2O)c2ncnc(N)c12 | - | >100 µM |
| O=c1[nH]c(=S)n([C@@H]2O[C@H](CO)[C@@H](O)[C@@H]2O)cc1Cl | - | >680 µM |
| CCCCCCCCCCCCCCCCCCSC[C@H](O)COP(=O)(O)C(=O)O | - | 320–1000 µM |
| NC1=Nc2c(ncn2CCCCC(F)(F)P(=O)(O)O)C(=O)C1 | - | >1000 µM |
| NC(=O)c1ncn([C@@H]2O[C@H](CO)[C@@H](O)[C@H]2O)n1 | - | 5–4500 µM |
| O=C(O)c1cc(O)c2c(c1)C(=O)c1cccc(O)c1C2=O | - | >40 µM |
| CCCCCCCCCCCCOCCCOP(=O)(O)C(=O)O | - | 320 µM |
| NC(=O)c1cn([C@@H]2O[C@H](CO)[C@@H](O)[C@@H]2O)c2ncnc(N)c12 | - | 1.6 µM |
| CCCCCCCCOCCCOP(=O)(O)C(=O)O | - | 1000 µM |
| COc1cc(C[C@H]2C(=O)OC[C@@H]2Cc2cc(OC)c3c(c2)OCO3)cc(OC)c1OC | MTT | >50 µg/mL |

Repeating the first 6 entries:

{"smiles": "CC(O)C\\C=C/C=C\\C=C\\CCCCCCc1cccc(O)c1O", "method": "WST", "value": "49.58 µM"}
{"smiles": "N=C(N)c1cn([C@@H]2O[C@H](CO)[C@@H](O)[C@@H]2O)c2ncnc(N)c12", "value": ">100 µM"}
{"smiles": "CCCCCCCCCCCCSCC(COP(=O)([O-])OCC[N+](C)(C)C)OCCCCCCCCO", "method": "neutral red", "value": ">100 µM"}
{"smiles": "CC(Oc1ccc2ncccc2c1)C(=O)N/N=C/c1ccc(Cl)c(Cl)c1", "method": "absorbance", "value": ">512 µM"}
{"smiles": "CCCCCCCCSC[C@H](O)COP(=O)(O)C(=O)O", "value": "100–320 µM"}
{"smiles": "N#CCc1csc2ccccc12", "method": "visual reading", "value": ">100 µg/mL"}